Results deposited as PubChem BioAssay AID624099 (ICCB-Longwood, 2012)
The whole screen tested about 21,000 reagents; shown is an unselected part. 497 of them (2.4%) count as active. 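Higher z means weaker E2 silencing; only reporter increases were scored, and knock-downs that hurt cell survival may mask genuine repressor factors.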 Unmarked entries are inactive. Reagents against one gene are numbered here.

Aim: 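Knock-downs relieving repression by E2 of an HPV18 LCR luciferase reporter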 (primary screen)
System: human C33A cervical carcinoma cells (HPV-negative) stably expressing BPV1 E2 and an HPV18 LCR luciferase reporter
Knock-down reagent: siRNA pool against human genes, 40 nM
Timing: 72 h
Measured: 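HPV18 LCR reporter light per well, converted to plate-wise z-scores that exclude control wells, and averaged over triplicate plates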
Direction: mean z-score and z-score: higher = stronger reporter signal, weaker E2 silencing
Rule for the call: 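Hit if mean z-score reaches 2 and two or more of three replicate z-scores also reach 2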

| gene | reagent no. | mean z-score | z-score, replicate A | z-score, replicate B | z-score, replicate C |
| --- | --- | --- | --- | --- | --- |
| NIT1 (GeneID 4817) | 1 | 0.47 | 0.12 | 0.82 | 0.48 |
| GRK7 (GeneID 131890) | 1 | -1 | -1.29 | -0.89 | -0.81 |
| SLC39A12 (GeneID 221074) | 1 | -2.11 | -2.44 | -2.11 | -1.78 |
| PLAU (GeneID 5328) | 1 | -0.13 | -0.5 | 0 | 0.12 |
| RAB39B (GeneID 116442) | 1 | 0.76 | 0.75 | 0.82 | 0.72 |
| NTN5 (GeneID 126147) | 1 | 0.39 | 0.7 | 0.3 | 0.15 |
| SLC22A25 (GeneID 387601) | 1 | 0.13 | 0.69 | -0.13 | -0.16 |
| AKAP1 (GeneID 8165) | 1 | 0.49 | 0.44 | 0.47 | 0.58 |
| OR1D5 (GeneID 8386) | 1 | 1.31 | 1.02 | 1.18 | 1.73 |
| SETD5 (GeneID 55209) | 1 | 3.25 (active) | 2.78 | 3.12 | 3.84 |
| ERCC6L2 (GeneID 375748) | 1 | -0.66 | -0.84 | -0.8 | -0.33 |
| ERCC6L2 (GeneID 375748) | 2 | -0.54 | -0.56 | -0.11 | -0.93 |
| MT2A (GeneID 4502) | 1 | -0.6 | -0.4 | -0.49 | -0.92 |
| PLCXD3 (GeneID 345557) | 1 | 0.36 | 0.56 | 0.41 | 0.12 |
| NXN (GeneID 64359) | 1 | 0.04 | 0.36 | -0.24 | 0.01 |
| MELTF (GeneID 4241) | 1 | -0.48 | -0.86 | -0.38 | -0.19 |
| SIKE1 (GeneID 80143) | 1 | 0.14 | 0.33 | -0.15 | 0.25 |
| MBTD1 (GeneID 54799) | 1 | 0.75 | 1.04 | 0.46 | 0.74 |
| SCN1B (GeneID 6324) | 1 | 0.66 | 0.65 | 0.62 | 0.71 |
| NUF2 (GeneID 83540) | 1 | -0.45 | -0.59 | -0.19 | -0.56 |
| RPL10P13 (GeneID 390345) | 1 | -0.03 | -0.02 | 0 | -0.07 |
| COL7A1 (GeneID 1294) | 1 | 1.07 | 1 | 1.15 | 1.07 |
| CEP63 (GeneID 80254) | 1 | -0.3 | -0.2 | -0.14 | -0.57 |
| TKTL1 (GeneID 8277) | 1 | 0.51 | 0.78 | 0.1 | 0.64 |
| AGR3 (GeneID 155465) | 1 | -0.74 | -0.62 | -0.9 | -0.71 |
| LOC140103 (retired record) (GeneID 140103) | 1 | -0.55 | -0.72 | -0.21 | -0.73 |
| TST (GeneID 7263) | 1 | -1.14 | -0.62 | -1.58 | -1.22 |
| ARHGEF6 (GeneID 9459) | 1 | -0.71 | -0.5 | -0.92 | -0.7 |
| CDC42BPB (GeneID 9578) | 1 | -0.45 | -0.5 | -0.56 | -0.3 |
| REG3A (GeneID 5068) | 1 | 1.59 | 1.55 | 1.66 | 1.56 |
| HNRNPC (GeneID 3183) | 1 | 0.73 | 0.48 | 1.04 | 0.66 |
| PHF2 (GeneID 5253) | 1 | 1.53 | 2.04 | 1.43 | 1.1 |
| DSCAM (GeneID 1826) | 1 | 0.14 | 0.13 | 0.29 | -0.01 |
| ZBTB10 (GeneID 65986) | 1 | 0.42 | 0.45 | 0.4 | 0.4 |
| PDRG1 (GeneID 81572) | 1 | -0.1 | 0.28 | -0.25 | -0.34 |
| TAS2R19 (GeneID 259294) | 1 | -0.36 | -0.14 | -0.55 | -0.4 |
| DNAI7 (GeneID 55259) | 1 | -1.11 | -1.21 | -1.32 | -0.8 |
| MTO1 (GeneID 25821) | 1 | -0.57 | -0.61 | -0.53 | -0.57 |
| F8A1 (GeneID 8263) | 1 | 0.07 | -0.04 | 0.04 | 0.2 |
